Data source: PubChem BioAssay AID1259414 (Drosophila RNAi Screening Center, 2018)
Assay: 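Genome-wide screen for host control of endosymbiont load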 (primary screen). Cells: Drosophila JW18 cells infected with Wolbachia. Knock-down reagent: long dsRNA against Drosophila genes, 0.25 µg dsRNA per well of a 384-well plate. Duration: 5 days. Treatment: cells persistently infected with Wolbachia before knock-down; no added drug. Measured: 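Imaged fluorescence in situ signal for Wolbachia 23S rRNA per DAPI-counted host cell, given as a robust z-score within each plate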. Reading the numbers: Wolbachia per cell robust z: higher = more Wolbachia per host cell than the plate typical. Hit rule: 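Hit when robust z is 1.5 or more, or -1.5 or less, in at least two of three replicates; excludes dsRNAs with several or no targets, genes not expressed in JW18 and well A1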.
The screen tested about 24,000 reagents; this is an unselected part of those with a known target gene and a result. Over the whole deposit, about 1,210 (5%) are marked active. 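Inactive calls also include excluded dsRNAs with several or no targets, genes unexpressed in JW18, and well A1, regardless of score.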 Entries without a mark were called inactive. A plus sign joins genes that one reagent is predicted to hit.

| Target gene | PubChem SID | Wolbachia per cell robust z, rep 1 | Wolbachia per cell robust z, rep 2 | Wolbachia per cell robust z, rep 3 |
| --- | --- | --- | --- | --- |
| CG4098 | SID104190191 | 0.249 | 0.335 | -0.788 |
| CG43349 + CG5011 | SID104207728 | 0.112 | 0.322 | -0.681 |
| Trf4-1 | SID104197567 | -1.91 | -5.03 | -3.73 |
| CG34296 | SID104216384 | 0.167 | -0.351 | 0.277 |
| PK2-R2 | SID104196240 | -4.45 | 0.72 | 0.16 |
| PK2-R2 | SID104204081 | -0.365 | 1.1 | 0.0893 |
| lin-52 | SID104197898 | -4.51 | 0.155 | 0.657 |
| rho-4 | SID104199553 | -0.128 | -0.171 | 0.648 |
| rho-4 | SID104199554 | -0.0955 | 0.213 | -0.733 |
| CG16959 | SID104190022 | -1.57 (active) | -5.48 | 1.14 |
| Fur1 | SID104193499 | 0.0126 | 0.0565 | 0.625 |
| Fur1 | SID104196468 | 1.72 (active) | 0.622 | 2.16 |
| Fur1 | SID104218312 | 0.765 | 0.365 | 1.32 |
| CG11349 | SID104187971 | -0.247 | 0.292 | -0.68 |
| CG11349 | SID104206107 | -1.01 | 0.121 | -0.754 |
| CG12519 + CG32213 + 825-Oak + 1 more | SID104189407 | -1.56 | -1.72 | -0.894 |
| CG11885 | SID104180121 | -1.89 | 0.208 | -1.42 |
| tyn | SID104200444 | -0.347 | 0.0364 | 0.518 |
| CG5916 | SID104195709 | -1.07 | 0.36 | 0.353 |
| Sclp | SID104199643 | 1.02 | -0.169 | -1.61 |
| CG33281 | SID104180213 | -7.82 | -0.85 | 0.37 |
| Hydr2 | SID104180399 | 0.241 | -1.45 | 0.354 |
| CG33229 | SID104187655 | -0.185 | 1.15 | -7.76 |
| CG33229 | SID104203275 | 0.897 | 0.88 | 0.69 |
| Tsp42En | SID104185977 | -0.804 | 0.59 | -1.05 |
| CNT2 | SID104186865 | -0.465 | 0.848 | 0.213 |
| CheA46a | SID104216458 | -0.534 | 0.771 | -0.0393 |
| CG11127 | SID104185835 | 0.548 (active) | -4.68 | -1.52 |

An excerpt taken from the entries so far, as a working copy:
| Target gene | PubChem SID | Wolbachia per cell robust z, rep 1 | Wolbachia per cell robust z, rep 2 | Wolbachia per cell robust z, rep 3 |
| --- | --- | --- | --- | --- |
| CG43349 + CG5011 | SID104207728 | 0.112 | 0.322 | -0.681 |
| Trf4-1 | SID104197567 | -1.91 | -5.03 | -3.73 |
